Data on one molecule can be found in patent publication US20250268876A1, “TREATMENT OF HIDRADENITIS SUPPURATIVA WITH ORISMILAST” (UNION THERAPEUTICS A/S, priority 2021, published 2025).

pEC50: −log10 of the molar value.

In this assay the test system is TNF-α secretion from human whole blood. Description: Whole blood TNF-α secretion assay (LPS or SEB). Type of assay: cell-based. The settings on record: 24 h, SEB 1 μg/mL, donor 1.

Take `CCOc1cc([C@@H](CS(C)(=O)=O)N2C(=O)c3cccc(NC(C)=O)c3C2=O)ccc1OC` [Apremilast]: the pEC50 (as a rule, the negative decadic logarithm of the EC50, by convention in mol/L) was 6.86.
